The test system of the data set is Nc1ncnc2c1ncn2[C@@H]1O[C@H](COP(=O)(O)OP(=O)(O)OP(=O)(O)O)[C@@H](O)[C@H]1O. Nature of the data set: purified protein. The following applies: 1-5 mM ATP, 4 mM MgCl2, 100 mM Tris-HCl pH 8.0, 37 °C.

Turning to “EscN-Myc-His6 (Escherichia coli O127:H6 str. E2348/69)”, the Km (as a rule, the concentration of substrate that gives half-maximal velocity) stood at 730 ± 10 µM.
To “SsaN-Myc-His6 (Salmonella enterica subsp. enterica serovar Typhimurium str. LT2)” belongs 810 ± 20 µM.

The values above are taken from publication PMC3983159.
